Results reported in PMC9101188, “Human α-Defensin-6 Neutralizes Clostridioides difficile Toxins TcdA and TcdB by Direct Binding” (International Journal of Molecular Sciences, 2022).

Test system: Vero cells
Conditions: α-def-6 6 µM, 24 h, 48 h and 72 h, 37 °C; absorbance 490 nm; three biological replicates (n = 3)

For CC[C@H](C)[C@@H]1NC(=O)CNC(=O)[C@H](CCSC)NC(=O)[C@H](C(C)C)NC(=O)[C@H]([C@@H](C)O)NC(=O)[C@@H]2CSSC[C@@H]3NC(=O)[C@H](Cc4c[nH]cn4)NC(=O)[C@@H](NC(=O)[C@@H](NC(=O)[C@H](Cc4ccccc4)NC(=O)[C@H](C)N)[C@@H](C)O)CSSC[C@@H](C(=O)N[C@@H](CC(C)C)C(=O)O)NC(=O)[C@H](CSSC[C@H](NC(=O)[C@H](CO)NC(=O)[C@H](CCCNC(=N)N)NC(=O)[C@H](CCCNC(=N)N)NC3=O)C(=O)N[C@@H](Cc3ccc(O)cc3)C(=O)N[C@@H](CO)C(=O)N[C@@H]([C@@H](C)O)C(=O)N[C@@H](CCC(=O)O)C(=O)N[C@@H](Cc3ccc(O)cc3)C(=O)N[C@@H](CO)C(=O)N[C@@H](Cc3ccc(O)cc3)C(=O)NCC(=O)N[C@@H]([C@@H](C)O)C(=O)N2)NC(=O)[C@H](Cc2ccccc2)NC(=O)[C@H](CCCNC(=N)N)NC(=O)[C@H](Cc2c[nH]cn2)NC(=O)[C@H](CC(N)=O)NC1=O [α-def-6], the “effect on viability of cultured Vero cells” value was “no effect on viability of cultured Vero cells”.
